Data on one sequence can be found in paper doi:10.1101/2023.03.01.530725.

The chains behind the UniProt entries cited, without tags or fusion partners. Where a name states a change or a piece, a line headed by the entry shows the natural chain unless it says otherwise.
UniProt P9WF37: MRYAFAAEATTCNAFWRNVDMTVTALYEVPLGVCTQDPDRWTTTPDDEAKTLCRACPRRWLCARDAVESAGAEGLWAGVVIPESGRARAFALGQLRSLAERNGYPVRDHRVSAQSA

Data set [1] addresses WhiB6 (apo, oxidized (S)2) (Mycobacterium tuberculosis) (UniProt P9WF37). Nature of the data set: SERS.
The target is the same in data set [2]. Nature of the data set: far-UV CD. Conditions: no MgCl2.

The exact form of at least one protein or probe is not confirmed. At least one verdict was read from the data and is not stated in words by the source.

Take “TGCCGTCTTCACGAACTCAAAACTGACGATCTGCTTAGCATGAAAAAAACTGTTGACATCGGCCAAGCATGACAGCCAGACTGTAGGCCC (double strand) [espA promoter DNA, 90 bp]”: the binding result in data set [1] and in data set [2] was “binds” each time.
